## Vif LAI: effect of single changes on growth against APOBEC3G

Data from the supplement of Langley et al. 2025, preprint, doi:10.1101/2025.10.20.683452.

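Pooled viruses with one designed change each in Vif went through two 72 h rounds in SupT1 cells expressing APOBEC3G. Each of three replicates was sequenced after round two and set against the merged round-one pool.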

Vif of LAI (a laboratory-adapted subtype B strain), residues 12-115; positions count from the first residue of the whole protein:
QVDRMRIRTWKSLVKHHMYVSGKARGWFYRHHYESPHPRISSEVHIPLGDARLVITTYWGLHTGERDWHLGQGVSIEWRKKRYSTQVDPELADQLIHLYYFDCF

Scale: log2 enrichment, wild type = 0; negative values mean that the variant was depleted. A change reads original residue, position, new residue. The median of three replicates is given, with the replicates in brackets. Input reads are the counts in the merged round-one pool, before selection.

{"substitution": "G37A", "input reads": "101", "median log2 enrichment": "-4.03 (-4.03 / -4.46 / -2.91)"}
{"substitution": "G37C", "input reads": "544", "median log2 enrichment": "-1.14 (2.12 / -2.85 / -1.14)"}
{"substitution": "G37D", "input reads": "424", "median log2 enrichment": "-0.81 (-0.81 / -2.00 / -0.58)"}
{"substitution": "G37E", "input reads": "825", "median log2 enrichment": "-2.41 (-2.41 / -3.19 / 0.51)"}
{"substitution": "G37F", "input reads": "379", "median log2 enrichment": "-0.38 (-0.38 / 2.44 / -0.57)"}
{"substitution": "G37I", "input reads": "1161", "median log2 enrichment": "-1.82 (-1.82 / -3.58 / -1.60)"}
{"substitution": "G37P", "input reads": "681", "median log2 enrichment": "-1.75 (-1.35 / -2.19 / -1.75)"}
{"substitution": "G37Q", "input reads": "486", "median log2 enrichment": "-0.93 (-0.93 / 0.96 / -1.09)"}
{"substitution": "G37R", "input reads": "1099", "median log2 enrichment": "-1.59 (-1.59 / 0.03 / -1.79)"}
{"substitution": "G37S", "input reads": "21", "median log2 enrichment": "1.91 (1.91 / -1.00 / 2.39)"}
{"substitution": "G37T", "input reads": "45", "median log2 enrichment": "0.59 (0.59 / -1.43 / 4.14)"}
{"substitution": "G37W", "input reads": "389", "median log2 enrichment": "-2.43 (0.01 / -2.43 / -2.53)"}
{"substitution": "G37Y", "input reads": "805", "median log2 enrichment": "-1.99 (-2.16 / 0.59 / -1.99)"}
{"substitution": "F39A", "input reads": "212", "median log2 enrichment": "-4.31 (-5.09 / -4.31 / -2.38)"}
{"substitution": "F39C", "input reads": "36", "median log2 enrichment": "-3.01 (-2.55 / -4.57 / -3.01)"}
{"substitution": "F39G", "input reads": "446", "median log2 enrichment": "-2.38 (-2.99 / -0.15 / -2.38)"}
{"substitution": "F39I", "input reads": "706", "median log2 enrichment": "-2.92 (-2.92 / -4.76 / -2.08)"}
{"substitution": "F39K", "input reads": "497", "median log2 enrichment": "-2.23 (-2.23 / -3.39 / -1.57)"}
{"substitution": "F39L", "input reads": "152", "median log2 enrichment": "-0.55 (-0.71 / -0.41 / -0.55)"}
{"substitution": "F39P", "input reads": "413", "median log2 enrichment": "-1.23 (-0.69 / -2.40 / -1.23)"}
{"substitution": "F39Q", "input reads": "547", "median log2 enrichment": "-1.33 (-1.33 / -1.71 / 1.11)"}
{"substitution": "F39R", "input reads": "497", "median log2 enrichment": "0.76 (1.59 / 0.76 / -0.67)"}
{"substitution": "F39T", "input reads": "2832", "median log2 enrichment": "-1.04 (-0.84 / -2.47 / -1.04)"}
{"substitution": "F39V", "input reads": "442", "median log2 enrichment": "-1.20 (-1.20 / -3.42 / 2.15)"}
{"substitution": "F39W", "input reads": "36", "median log2 enrichment": "-2.99 (-2.55 / -2.99 / -3.01)"}
{"substitution": "Y40A", "input reads": "832", "median log2 enrichment": "-3.05 (-2.53 / -3.84 / -3.05)"}
{"substitution": "Y40C", "input reads": "244", "median log2 enrichment": "-1.50 (-1.50 / -2.43 / -1.18)"}
{"substitution": "Y40D", "input reads": "32", "median log2 enrichment": "0.44 (-0.91 / 2.06 / 0.44)"}
{"substitution": "Y40E", "input reads": "672", "median log2 enrichment": "-1.61 (-1.44 / -4.07 / -1.61)"}
{"substitution": "Y40F", "input reads": "991", "median log2 enrichment": "-1.61 (-1.81 / 0.23 / -1.61)"}
{"substitution": "Y40G", "input reads": "1522", "median log2 enrichment": "-3.36 (-3.09 / -3.63 / -3.36)"}
{"substitution": "Y40H", "input reads": "6440", "median log2 enrichment": "-1.90 (-1.90 / -2.04 / -1.61)"}
{"substitution": "Y40I", "input reads": "3667", "median log2 enrichment": "-1.87 (-1.25 / -4.33 / -1.87)"}
{"substitution": "Y40K", "input reads": "100", "median log2 enrichment": "-0.95 (-0.42 / -1.64 / -0.95)"}
{"substitution": "Y40L", "input reads": "447", "median log2 enrichment": "-2.19 (-2.19 / -3.23 / -1.59)"}
{"substitution": "Y40N", "input reads": "197", "median log2 enrichment": "-0.45 (-0.45 / -1.83 / -0.41)"}
{"substitution": "Y40P", "input reads": "536", "median log2 enrichment": "-1.93 (-2.63 / -0.90 / -1.93)"}
{"substitution": "Y40Q", "input reads": "27", "median log2 enrichment": "-2.25 (-2.25 / -4.41 / 0.68)"}
{"substitution": "Y40R", "input reads": "1437", "median log2 enrichment": "-3.00 (-3.00 / -4.69 / -2.60)"}
{"substitution": "Y40T", "input reads": "22", "median log2 enrichment": "-0.90 (-0.38 / -2.54 / -0.90)"}
{"substitution": "Y40V", "input reads": "812", "median log2 enrichment": "-1.64 (0.18 / -2.73 / -1.64)"}
{"substitution": "Y40W", "input reads": "16", "median log2 enrichment": "1.29 (1.29 / -2.09 / 2.05)"}

Extract of 6 entries:

| substitution | input reads | median log2 enrichment |
|---|---|---|
| Y40I | 3667 | -1.87 (-1.25 / -4.33 / -1.87) |
| F39T | 2832 | -1.04 (-0.84 / -2.47 / -1.04) |
| G37P | 681 | -1.75 (-1.35 / -2.19 / -1.75) |
| F39G | 446 | -2.38 (-2.99 / -0.15 / -2.38) |
| G37E | 825 | -2.41 (-2.41 / -3.19 / 0.51) |
| G37S | 21 | 1.91 (1.91 / -1.00 / 2.39) |

Not every substitution is listed. The scan is noisy: the rank correlation of replicates is about 0.4 to 0.65, and variants with under about 50 input reads tend to read too high. The authors note that some positive scores may be noise, and some enriched variants failed when tested singly.